Pooled drug test results. Numbers come from NIAID ChemDB, via PubChem.

All rows: whole-cell or culture tests; agent: Mycobacterium tuberculosis

MIC50, MIC90 and the like: level of inhibition, or share of isolates inhibited. Blank or dashed fields: not listed here. Neighbouring rows are from separate reports. MIC bound comes from a single tested concentration. Percent inhibition refers to the dose given; in toxicity tests it is the harm to the cells.

compound,cell line,mutations,tested at,strain or isolate,method,conditions,read-out,result
CC1N(C)CCC1(C)CN1c2ccccc2Sc2ccccc21.Cl,VERO,,,H37Rv,,,MIC,12.5 µg/mL
COC(=O)CSc1nnc(-c2ncc([N+](=O)[O-])n2C)s1,,,,H37Rv,,,MIC,6.25 µg/mL
CCOc1ccc(C(=O)/C=C/c2cc3cc(Br)ccc3nc2Cl)cc1,,,6.25 µg/mL,H37Rv,broth dilution,,inhibition,19%
O=C1N(c2nncs2)CCN1[N+](=O)[O-],,,,EMB-R,,,MIC,3.1 µg/mL
CCCCCc1ccc(NC(=O)NNC(=O)c2ccncc2)cc1,,,,My 331/88,broth dilution,14 d,MIC100,32 µM
CC(=O)C1(C)C(=O)N(S(=O)(=O)c2ccc(C)cc2)C(=O)N1S(=O)(=O)c1ccc(C)cc1,,,12.5 µg/mL,H37Rv,BACTEC,,inhibition,0%
CCCCCCCCCN1C(=O)CC(SCCNC(=O)c2ccc(OCCCCCC)cc2)C1=O,,,,H37Ra,,,MIC,≤20 µg/mL
COc1ccc([C@@H]2CC(=O)c3c(O)cc(O[C@@H]4O[C@H](CO)[C@@H](O)[C@H](O)[C@H]4O[C@H]4O[C@@H](C)[C@H](O)[C@@H](O)[C@H]4O)cc3O2)cc1O,,,,H37Rv,BACTEC,,MIC,≥128 µg/mL
Cc1ccc(NC(=O)NNC(=O)c2ccncc2)cc1,,,,My 331/88,broth dilution,14 d,MIC100,62.5 µM
CCOC(=O)Nc1ccc(SCC2COC(Cn3ccnc3)(c3ccc(Cl)cc3Cl)O2)cc1,,,6.25 µg/mL,H37Rv,resazurin,,inhibition,14%
Cc1cccc(OC2C(=O)N(c3ccc(Cl)c(F)c3)C2c2ccc(OCC(=O)O)cc2)c1,,,6.25 µg/mL,H37Rv,resazurin,,inhibition,56%
O=C(CSc1nnc(-c2ccccn2)s1)N/N=c1/scc(-c2ccc([N+](=O)[O-])cc2)n1-c1ccccc1,,,,Clinical isolate 180,,,MIC,>80 µg/mL
CCC1CN(c2c(F)cc3c(=O)c(C(=O)O)cn([C@@H]4C[C@@H]4F)c3c2OC)CCN1,,,,43 (RFP-susceptible),,,MIC,1 µg/mL
CC(=O)Nc1ccc(OCC(=O)NN2C(=O)CSC2c2ccc(Cl)cc2Cl)cc1,,,12.5 µg/mL,H37Rv,,,inhibition,0%
O=C(Nc1ccc(Cl)cc1)c1cc(S(=O)(=O)N2CCNNC2=O)c(S)cc1Cl,,,6.25 µg/mL,H37Rv,resazurin,,inhibition,-1%
O=C(NNC(=O)c1ccncc1)Nc1ccc(Br)cc1F,,,,My 331/88,broth dilution,21 d,MIC100,32 µM
CCOCc1ccc(-c2cc(-c3cc4cc(Br)ccc4nc3Cl)nc(N)n2)cc1,,,5 µg/mL,H37Rv,broth dilution,,inhibition,97%
CCCCOC(=O)CSc1nnc(-c2ncc([N+](=O)[O-])n2C)s1,,,,H37Rv,,,MIC,0.78 µg/mL
CCc1c2c(nc3ccc(OCc4ccc(OC)c(F)c4)cc13)-c1cc3c(c(=O)n1C2)COC(=O)C3(O)CC,,Extensively drug-resistant,,XDR,resazurin,,MIC,23.56 µM
O=C(NNC(=O)c1ccncc1)Nc1ccc(F)c(Cl)c1,,,,My 331/88,broth dilution,14 d,MIC100,62.5 µM
O=C(OCCN=C1c2ccccc2CCc2ccccc21)c1ccccc1,,,12.5 µg/mL,H37Rv,BACTEC,,inhibition,9%
CCCCCCCCCN1C(=O)CC(SCCN)C1=O,,,,H37Ra,,,MIC,≤20 µg/mL
NNC(=O)c1ccncc1,,,,My 331/88,,,MIC,1 µg/mL
Cc1c(N2CC3CCCNC3C2)c(F)cc2c(=O)c(C(=O)O)cn(C3CC3)c12,,,,51 (RFP-resistant),,,MIC,1.56 µg/mL
CCCCCCCCCCNC1CC(=O)N(CCCCCCCCCC)C1=O,,,,H37Ra,,,MIC,≤20 µg/mL
CN1C(=O)/C(=C2\SC(=O)N(CN3CCCCC3)C2=O)c2cc(Br)ccc21,,,,H37Rv,BACTEC,,MIC bound,>12.5 µg/mL
Fc1ccc(NC(=S)N/N=C/c2cccnc2)cc1Cl,,,,H37Rv,,,MIC,1 µg/mL
CN(C)CC(O)c1ccc2oc3ccccc3c2c1,,,12.5 µg/mL,H37Rv,BACTEC,,inhibition,36%
CCCOC(=O)CSc1nnc(-c2ccc([N+](=O)[O-])o2)s1,,,,H37Rv,,,MIC,>6.25 µg/mL
CC(=O)Nc1ccc(OCC(=O)NN2C(=O)CSC2c2ccc(O)cc2)cc1,,,12.5 µg/mL,H37Rv,,,inhibition,0%
CCC(=O)OC1CCn2c1nc1c2C(=O)C(C)=C(NC(C)=O)C1=O,,,,H37Rv,BACTEC,,MIC bound,>12.5 µg/mL
Oc1ccccc1C(=S)NCc1cccc(C(F)(F)F)c1,,,,My 331/88,,,MIC,0.5 µg/mL
O=C(CSc1nnc(-c2ccccn2)s1)N/N=c1/scc(-c2ccccc2)n1-c1cccc([N+](=O)[O-])c1,,,,Clinical isolate 331,,,MIC,>80 µg/mL
N#Cc1c(-c2cccc([N+](=O)[O-])c2)cc(-c2cc3cc(Br)ccc3nc2Cl)nc1N,,,6.25 µg/mL,H37Rv,broth dilution,,inhibition,6%
CC(=O)Nc1ccc(OCC(=O)NN2C(=O)CSC2c2ccccc2O)cc1,,,12.5 µg/mL,H37Rv,,,inhibition,0%
CCCOC(=O)CSc1nnc(-c2ncc([N+](=O)[O-])n2C)s1,,,,H37Rv,,,MIC,0.78 µg/mL
CCCCCCCCCN1C(=O)C=C(C)C1=O,,,,Clinical isolate (isoniazid-resistant),,,MIC,≤20 µg/mL
CCc1c2c(nc3ccc(OCc4cc(F)cc(Cl)c4)cc13)-c1cc3c(c(=O)n1C2)COC(=O)C3(O)CC,,Extensively drug-resistant,,XDR,resazurin,,MIC,5.85 µM
O=C(NNC(=O)c1ccncc1)Nc1ccc(Cl)c(Cl)c1,,,,My 331/88,broth dilution,14 d,MIC100,125 µM
CC1=CC(=O)N(CC2CCC3CC2C3(C)C)C1=O,,,,H37Ra,,,MIC,≤20 µg/mL
CCN1C(=O)CC2CCCC1C2,,,,H37Rv,BACTEC,,MIC bound,>12.5 µg/mL
O=C(CSc1nnc(-c2ccccn2)s1)N/N=c1/scc(-c2ccc(Cl)cc2)n1-c1ccccc1,,,,H37Rv,,,MIC,40 µg/mL
O=C(O)COc1ccc(C2C(c3ccccc3)C(=O)N2c2ccc(Cl)c(F)c2)cc1,,,,H37Rv,resazurin,,MIC90,>6.25 µg/mL
Oc1cc(Cl)ccc1C(=S)NCc1ccccc1,,,,My 331/88,,,MIC,2 µg/mL
CCc1c2c(nc3ccc(OCc4ccc(F)cc4C(F)(F)F)cc13)-c1cc3c(c(=O)n1C2)COC(=O)C3(O)CC,,,,H37Rv,resazurin,,MIC,21.99 µM
CCCCCCCCS(=O)(=O)CC(N)=O,,,,401296,,,MIC,≤25 µg/mL
Oc1ccccc1C(=S)NCc1ccc(Cl)cc1,,,,My 331/88,,,MIC,1 µg/mL
CCCc1cc(=O)oc2c(C(=O)CC)c(N3CCN(Cc4ccc(F)cc4)CC3)c3c(c12)OC(C)(C)C=C3,,,,H37Rv,turbidity,,MIC90,>26 µg/mL
CC1(C)c2ccccc2-c2nc3ccccc3c3c2C1OC3=O,,,,H37Rv,BACTEC,,MIC bound,>6.25 µg/mL
O=C1Cc2ccccc2/C1=C\c1cc2cc(Br)ccc2nc1Cl,,,6.25 µg/mL,H37Rv,broth dilution,,inhibition,41%
NNC(=O)c1ccncc1,,,,Strain 34,,,MIC,0.125 µg/mL
CCCCCCCCCN1C(=O)CC(SCCNC(=O)c2ccc(C)cc2)C1=O,,,,Clinical isolate (isoniazid-resistant),,,MIC,≤20 µg/mL
Cc1ccc(O)c(C(=S)NCc2ccc(C(C)(C)C)cc2)c1,,,,My 331/88,,,MIC,0.5 µg/mL
Fc1ccc(NC(=S)N/N=C/c2ccccc2)cc1Cl,,,,H37Rv,,,MIC,2 µg/mL
COc1cc2c(cc1OC)C1C(=O)c3c(O)cc4c(c3OC1CO2)C=CC(C)(C)O4,,,,H37Rv,BACTEC,,MIC bound,>12.8 µg/mL
COc1cc(C2SC(C)C(=O)N2NC(=O)COc2ccc(NC(C)=O)cc2)cc(OC)c1OC,,,12.5 µg/mL,H37Rv,,,inhibition,27%
CC(=O)NC[C@H]1CN(c2ccc(N3CCOCC3)c(F)c2)C(=O)O1,,,,Strain 34,,,MIC,0.25 µg/mL
O=C1c2ccccc2C(=O)c2c(Nc3cccc4c3C(=O)c3ccccc3C4=O)cccc21,,,12.5 µg/mL,H37Rv,BACTEC,,inhibition,-1%
COc1ccc(/C=N/NC(=O)COc2ccc(NC(C)=O)cc2)cc1,,,12.5 µg/mL,H37Rv,,,inhibition,25%
COc1ccc(C2OC3=C(Nc4ccc(Cl)cc4N3)C2=O)cc1,,,,H37Rv,BACTEC,,MIC bound,>12.5 µg/mL
O=C(/C=C/c1cc2cc(Br)ccc2nc1Cl)c1ccc(Cl)c(Cl)c1,,,6.25 µg/mL,H37Rv,broth dilution,,inhibition,5%
CC1(C)S[C@@H]2[C@H](NC(=O)[C@H](C(=O)[O-])c3ccsc3)C(=O)N2[C@H]1C(=O)[O-].[Na+].[Na+],,,,28 strains,,,MIC50,>64 µg/mL
CCCCCCCCNC1(C)CC(=O)N(CCCCCCCC)C1=O,,,,H37Ra,,,MIC,≤20 µg/mL
CC(C)N=c1cc2n(-c3ccc(Cl)cc3)c3ccccc3nc-2cc1Nc1ccc(Cl)cc1,,,,EMB-R,,,MIC,≤0.1 µg/mL
Nc1nc(-c2cccs2)cc(-c2cc3cc(F)ccc3nc2Cl)n1,,,6.25 µg/mL,H37Rv,broth dilution,,inhibition,9%
Cc1ccccc1OC1C(=O)N(c2ccc(Cl)c(F)c2)C1c1ccc(OCC(=O)O)cc1,,,,H37Rv,resazurin,,MIC90,>6.25 µg/mL
Nc1nc(-c2ccc(Cl)c(Cl)c2)cc(-c2cc3cc(Br)ccc3nc2Cl)n1,,,6.25 µg/mL,H37Rv,broth dilution,,inhibition,16%
O=C(CSc1nnc(-c2ccccn2)s1)N/N=c1/scc(-c2cccc(Cl)c2)n1-c1ccccc1,,,,Clinical isolate 190,,,MIC,>80 µg/mL
Cc1cc(O)c2c(c1)C(=O)C=CC2=O,,,,DP481/01 (isoniazid rifampicin-resistant),,,MIC,1.25 µg/mL
Cc1ccc(-c2cs/c(=N/NC(=O)CSc3nnc(-c4ccccn4)s3)n2-c2ccccc2)cc1,,,,Clinical isolate 180,,,MIC,80 µg/mL
Cc1c(N2CC3CCCNC3C2)c(F)cc2c(=O)c(C(=O)O)cn([C@@H]3C[C@@H]3F)c12,,,,56 (RFP-resistant),,,MIC,1.56 µg/mL
O=C(NN(Cn1c(=S)sc2ccccc21)Cn1c(=S)sc2ccccc21)c1ccccc1O,,,12.5 µg/mL,H37Rv,BACTEC,,inhibition,46%
Fc1cc(Br)ccc1Nc1nnc(-c2ccncc2)o1,,,,My 331/88,broth dilution,21 d,MIC100,>125 µM
CC(C)=CCCC(C)(OC1OC(CO)C(O)C(O)C1O)C1CCC2(C)C1C(O)CC1C3(C)CCC(O)C(C)(C)C3C(OC3OC(CO)C(O)C(O)C3O)CC12C,,,,H37Rv,BACTEC,,MIC,≥12.5 µg/mL
O=C(/C=C/c1cc2cc(F)ccc2nc1Cl)c1ccc(Cl)cc1Cl,,,6.25 µM,H37Rv,broth dilution,,inhibition,13%
CCc1c2c(nc3ccc(OCc4ccccc4[N+](=O)[O-])cc13)-c1cc3c(c(=O)n1C2)COC(=O)C3(O)CC,,Extensively drug-resistant,,XDR,resazurin,,MIC,2.95 µM
CC/C=C/C/C=C/C/C=C/CCCCCCCC(=O)OC,,,,H37Rv,BACTEC,,MIC,≥12.5 µg/mL
O=C(O)COc1ccc(C2C(Oc3ccccc3)C(=O)N2c2ccc(Cl)c(F)c2)cc1,,,6.25 µg/mL,H37Rv,resazurin,,inhibition,67%
CCCCOC(=O)CSc1nnc(-c2ccc([N+](=O)[O-])o2)s1,,,,H37Rv,,,MIC,>6.25 µg/mL
O=C(NNC(=O)c1ccncc1)Nc1ccc(Br)c(C(F)(F)F)c1,,,,My 331/88,broth dilution,14 d,MIC100,8 µM
CCOc1ccc(C(=O)/C=C/c2cc3cc(F)ccc3nc2Cl)cc1,,,6.25 µM,H37Rv,broth dilution,,inhibition,13%
CCCCCCCCCN1C(=O)CC(NCCN(CCCC)CCCC)C1=O,,,,H37Rv,,,MIC,≤20 µg/mL
O=C(NNC(=O)c1ccncc1)Nc1ccc(Cl)c(C(F)(F)F)c1,,,,My 331/88,broth dilution,14 d,MIC100,32 µM
CCOC(=O)N1C2C(c3ccccc3)=NC(C)(C)N2C(c2ccc([N+](=O)[O-])cc2)N1C(=O)OCC,,,,H37Rv,resazurin,,MIC bound,>6.25 µg/mL
Cc1ccc(O)c(C(=O)NCc2cccc([N+](=O)[O-])c2)c1,,,,My 331/88,,,MIC,62.5 µg/mL

10 of the rows above, restated:

| compound | cell line | mutations | tested at | strain or isolate | method | conditions | read-out | result |
|---|---|---|---|---|---|---|---|---|
| CCCCCCCCCN1C(=O)CC(NCCN(CCCC)CCCC)C1=O |  |  |  | H37Rv |  |  | MIC | ≤20 µg/mL |
| CCCCCCCCCN1C(=O)CC(SCCNC(=O)c2ccc(OCCCCCC)cc2)C1=O |  |  |  | H37Ra |  |  | MIC | ≤20 µg/mL |
| O=C(NNC(=O)c1ccncc1)Nc1ccc(Br)cc1F |  |  |  | My 331/88 | broth dilution | 21 d | MIC100 | 32 µM |
| COc1ccc(/C=N/NC(=O)COc2ccc(NC(C)=O)cc2)cc1 |  |  | 12.5 µg/mL | H37Rv |  |  | inhibition | 25% |
| Cc1cc(O)c2c(c1)C(=O)C=CC2=O |  |  |  | DP481/01 (isoniazid rifampicin-resistant) |  |  | MIC | 1.25 µg/mL |
| O=C(OCCN=C1c2ccccc2CCc2ccccc21)c1ccccc1 |  |  | 12.5 µg/mL | H37Rv | BACTEC |  | inhibition | 9% |
| CCc1c2c(nc3ccc(OCc4ccc(OC)c(F)c4)cc13)-c1cc3c(c(=O)n1C2)COC(=O)C3(O)CC |  | Extensively drug-resistant |  | XDR | resazurin |  | MIC | 23.56 µM |
| Cc1c(N2CC3CCCNC3C2)c(F)cc2c(=O)c(C(=O)O)cn(C3CC3)c12 |  |  |  | 51 (RFP-resistant) |  |  | MIC | 1.56 µg/mL |
| CC(=O)Nc1ccc(OCC(=O)NN2C(=O)CSC2c2ccc(O)cc2)cc1 |  |  | 12.5 µg/mL | H37Rv |  |  | inhibition | 0% |
| Cc1ccc(-c2cs/c(=N/NC(=O)CSc3nnc(-c4ccccn4)s3)n2-c2ccccc2)cc1 |  |  |  | Clinical isolate 180 |  |  | MIC | 80 µg/mL |